Measured values from several laboratories, pooled; numbers as filed in NIAID ChemDB.

ECn is the concentration giving n% inhibition of infection, replication or growth.

Nc1ccn([C@@H]2C=C(CO)[C@@H](O)[C@H]2O)c(=O)n1 ; agent: Variola virus ; cell line: MK2 ; strain: BSH ; test: culture ; measure: EC50 ; value: 0.03 µg/mL
C1=C(c2ccccc2)COc2ccccc21 ; agent: Poliovirus ; cell line: HEP-2 ; dose: 10 µM ; strain: TYPE 2 ; test: culture ; measure: inhibition ; value: 100%
O=C(O)CCNC(=O)N1CCC(NC(=O)c2ccc3c(c2)nc(-c2ccoc2)n3C2CCCCC2)CC1 ; agent: Poliovirus ; protein: RNA-dependent RNA polymerase ; test: target ; measure: IC50 ; value: >25 µM
Clc1ccc2c(c1)CC(c1ccccc1)CO2 ; agent: Poliovirus ; cell line: HEP-2 ; dose: 10 µM ; strain: IB (TYPE 2) ; test: culture ; measure: inhibition ; value: 19%
O=C(O)COc1ccc2c(c1)c(CCNC(=O)c1ccc3c(c1)nc(-c1ccoc1)n3C1CCCCC1)cn2CC(=O)O ; agent: Poliovirus ; protein: RNA-dependent RNA polymerase ; test: target ; measure: IC50 ; value: >25 µM
Clc1ccc2c(c1)C=C(c1ccccc1)CO2 ; agent: Poliovirus ; cell line: HEP-2 ; strain: TYPE 2 ; test: culture ; measure: EC50 ; value: <10 µM
CCOC(=O)c1cccc(NC(=O)NC2CCCC(NC(=O)c3ccc4c(c3)nc(-c3ccoc3)n4C3CCCCC3)C2)c1 ; agent: Poliovirus ; protein: RNA-dependent RNA polymerase ; test: target ; measure: IC50 ; value: >25 µM
CCCCCCCCCCCCC/C=C/[C@@H](O)[C@H](CO[C@@H]1O[C@H](CO)[C@H](O)[C@H](OS(=O)(=O)O)[C@H]1O)NC(=O)CCCCCCCCCCCCCCCCCCCCCCC ; agent: Influenza A virus ; dose: 200 µM ; protein: Sialidase ; strain: H3N8 A/duck/Ukraine/1/6 ; test: target ; measure: inhibition ; value: 36.9%
O=C(N[C@@H](Cc1c[nH]c2ccc(O)cc12)c1cscn1)c1ccc2c(c1)nc(-c1ccc[nH]1)n2C1CCCCC1 ; agent: Poliovirus ; protein: RNA-dependent RNA polymerase ; test: target ; measure: IC50 ; value: >25 µM
CCCCCCCCCCCCCCCCCC(=O)OC[C@@H](COP(=O)(O)OCCNCCO[C@@]1(C(=O)O)O[C@@H]([C@H](O)[C@H](O)CO)[C@H](NC(C)=O)[C@@H](O)[C@H]1F)OC(=O)CCCCCCCCCCCCCCCCC ; agent: Influenza A virus ; protein: Sialidase ; strain: H1N1 A/swine/Hokkaido/2/81 ; test: target ; measure: IC50 ; value: 125 µM
N#Cc1ccc(C[C@H](NC(=O)c2ccc3c(c2)nc(-c2ccoc2)n3C2CCCCC2)C(=O)O)cc1 ; agent: Poliovirus ; protein: RNA-dependent RNA polymerase ; test: target ; measure: IC50 ; value: >25 µM
NC(=O)c1csc([C@@H]2O[C@H](CO)[C@@H](O)[C@H]2O)n1 ; agent: Monkeypox virus ; cell line: LLC-MK2 ; test: culture ; measure: EC50 ; value: 5.2 µg/mL
Brc1ccc(C2=Cc3cc(Br)ccc3OC2)cc1 ; agent: Poliovirus ; cell line: HEP-2 ; dose: 10 µM ; strain: II (TYPE 2) ; test: culture ; measure: inhibition ; value: 10%
COc1ccc(-c2nc3cc(C(=O)NCCc4ccc(OC)c(OC)c4)ccc3n2C2CCCCC2)cc1 ; agent: Poliovirus ; protein: RNA-dependent RNA polymerase ; test: target ; measure: IC50 ; value: >25 µM
CCCCCCCCCCCCCCCCCC(=O)OC[C@@H](COP(=O)(O)OCCNCCO[C@@]1(C(=O)O)O[C@@H]([C@H](O)[C@H](O)CO)[C@H](NC(C)=O)[C@@H](O)[C@H]1F)OC(=O)CCCCCCCCCCCCCCCCC ; agent: Influenza A virus ; protein: Sialidase ; strain: H2N2 A/Swine/Italy/309/83 ; test: target ; measure: IC50 ; value: 150 µM
Nc1ccn(C[C@H]2COP(=O)(O)CO2)c(=O)n1 ; agent: Variola virus ; cell line: VERO ; strain: Isolate Rumbec ; test: culture ; measure: EC50 ; value: 16 µg/mL
c1ccc(C2COc3ccccc3C2)cc1 ; agent: Poliovirus ; cell line: HEP-2 ; strain: SABIN (TYPE 2) ; test: culture ; measure: EC50 ; value: >10 µM
Nc1ccn(C[C@@H](CO)OCP(=O)(O)O)c(=O)n1 ; agent: Variola virus ; cell line: VERO ; strain: Isolate Yamada ; test: culture ; measure: EC50 ; value: 12.1 µg/mL
Nc1nc(=O)n([C@@H]2C=C(CO)[C@@H](O)[C@H]2O)cc1F ; agent: Variola virus ; cell line: VERO ; strain: 7124 ; test: culture ; measure: EC50 ; value: 2.63 µg/mL

Repeating the first 3 entries:

compound | agent | cell line | dose | protein | strain | test | measure | value
Nc1ccn([C@@H]2C=C(CO)[C@@H](O)[C@H]2O)c(=O)n1 | Variola virus | MK2 | - | - | BSH | culture | EC50 | 0.03 µg/mL
C1=C(c2ccccc2)COc2ccccc21 | Poliovirus | HEP-2 | 10 µM | - | TYPE 2 | culture | inhibition | 100%
O=C(O)CCNC(=O)N1CCC(NC(=O)c2ccc3c(c2)nc(-c2ccoc2)n3C2CCCCC2)CC1 | Poliovirus | - | - | RNA-dependent RNA polymerase | - | target | IC50 | >25 µM

An empty or dashed field is not shown. ICn: concentration for n% inhibition. Percent inhibition refers to the dose given; in toxicity tests it is the harm to the cells. Lines come from different laboratories, so protocols vary.